Potato spindle tuber viroid, loop 15: variant abundance in plants

Values reported by Wu et al. 2024 (doi:10.1371/journal.ppat.1012142).

Region: loop 15 of PSTVd (intermediate strain), upper and lower strand joined, each 5' to 3', the first 7 letters being the upper strand, closing pairs included. Wild type: GGAAACCGCUACUAC. Varied positions (N): GGAAACCGNNNNNNC.

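Three N. benthamiana plants were inoculated with the whole mutant pool. Samples came from the inoculated region at 5 days, the leaf margin at 10 and upper systemic leaves at 12.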

Numbers give reads per thousand; 0 = not seen among the reads, higher = more abundant. Each site shows the three plants. "Pool" is the share in the plasmid pool used as inoculum, on the same scale. The inoculated region was read from the minus strand, the other sites from the plus strand. IR is the inoculated region, LM the leaf margin, Sys the systemic leaves. Samples held 43,870 to 66,106 reads, so the smallest values rest on one or two reads.

sequence,pool,IR,LM,Sys
GGAAACCGAAAAACC,0.192,0.131 / 0.0161 / 0.0952,0.0323 / 0 / 0.0401,0 / 0 / 0
GGAAACCGAACUGGC,0.256,0.180 / 0.112 / 0.190,0 / 0 / 0.0200,0 / 0 / 0
GGAAACCGAACUUAC,0.192,0.344 / 0.369 / 0.381,0.0647 / 0 / 0.140,0.0644 / 0 / 0
GGAAACCGAAGUCAC,0.256,0.164 / 0.0643 / 0.0762,0 / 0 / 0.0200,0.0322 / 0 / 0
GGAAACCGAAUAUUC,0.224,0.164 / 0.145 / 0.152,0 / 0.0223 / 0,0 / 0 / 0
GGAAACCGAAUCAAC,0.208,0.0655 / 0.161 / 0.133,0.0162 / 0.0223 / 0,0 / 0 / 0
GGAAACCGACAGGAC,0.0960,0.131 / 0.273 / 0.590,0.0970 / 0 / 0.200,0.0161 / 0.0454 / 0.0912
GGAAACCGACGUACC,0.256,0.180 / 0.257 / 0.248,0 / 0 / 0,0 / 0 / 0
GGAAACCGACUACGC,0.176,0.0491 / 0.0321 / 0.152,0.0162 / 0 / 0.0601,0 / 0 / 0
GGAAACCGACUUUGC,0.160,0.0655 / 0.145 / 0.114,0 / 0 / 0,0 / 0 / 0
GGAAACCGAGCUCCC,0.304,0.0491 / 0.0161 / 0.190,0.0162 / 0.0223 / 0.0200,0 / 0 / 0
GGAAACCGAGGAAAC,0.352,0.0491 / 0.0964 / 0.0762,0 / 0 / 0.0200,0.0161 / 0 / 0
GGAAACCGAGGAUCC,0.256,0.0819 / 0.0964 / 0.0571,0.0162 / 0 / 0,0 / 0 / 0
GGAAACCGAGGCCGC,0.160,0.164 / 0.0803 / 0.0571,0 / 0 / 0.0401,0.0161 / 0 / 0.0228
GGAAACCGAUACUAC,0.432,26.4 / 26.5 / 21.9,17.1 / 10.5 / 10.6,8.47 / 6.64 / 5.77
GGAAACCGAUGUACC,0.176,0.197 / 0.112 / 0.114,0 / 0.0223 / 0.0200,0 / 0 / 0
GGAAACCGAUUAUAC,0.192,0.197 / 0.369 / 0.362,0.0970 / 0.178 / 0.0801,0.0161 / 0.0908 / 0.205
GGAAACCGAUUGAUC,0.272,0.377 / 0.305 / 0.114,0 / 0.0223 / 0.0401,0 / 0 / 0
GGAAACCGCAAUGCC,0.160,0.197 / 0.129 / 0.152,0 / 0 / 0.0200,0 / 0 / 0
GGAAACCGCACGGUC,0.304,0.377 / 0.418 / 0.267,0.113 / 0.0891 / 0.160,0.0161 / 0 / 0
GGAAACCGCACUGUC,0.128,0.262 / 0.177 / 0.133,0 / 0.0223 / 0.0401,0 / 0 / 0
GGAAACCGCAGCAUC,0.144,0.115 / 0.145 / 0.0952,0 / 0 / 0.0200,0 / 0 / 0
GGAAACCGCCACGUC,0.208,0.0491 / 0.0803 / 0.0381,0.0162 / 0.0445 / 0.0601,0 / 0 / 0
GGAAACCGCCCGAAC,0.192,0.213 / 0.305 / 0.343,0.178 / 0.0668 / 0.100,0.0483 / 0 / 0
GGAAACCGCCGUCGC,0.224,0.0655 / 0.0803 / 0.0381,0 / 0 / 0.0200,0 / 0 / 0
GGAAACCGCCUCAUC,0.256,0.229 / 0.289 / 0.152,0 / 0 / 0.0401,0 / 0 / 0
GGAAACCGCGAAGUC,0.256,0.0983 / 0.145 / 0.0571,0 / 0.0223 / 0,0 / 0 / 0
GGAAACCGCGACCCC,0.400,0.0655 / 0.0482 / 0.0952,0.0162 / 0 / 0.0200,0.0161 / 0 / 0
GGAAACCGCGUCAAC,0.160,0.147 / 0.0161 / 0.0571,0 / 0 / 0,0 / 0 / 0
GGAAACCGCGUGUCC,0.208,0.0819 / 0.0161 / 0.0571,0 / 0 / 0,0 / 0 / 0
GGAAACCGCUACCCC,0.352,0.0328 / 0.0643 / 0.0952,0 / 0 / 0.0200,0.0483 / 0 / 0
GGAAACCGCUACUUC,0.880,0.606 / 0.546 / 0.685,0.210 / 0.134 / 0.260,0.612 / 0.605 / 0.0912
GGAAACCGCUGAGGC,0.192,0.0328 / 0.112 / 0.0190,0 / 0.0223 / 0.0401,0 / 0 / 0
GGAAACCGCUUAAGC,0.224,0.147 / 0.112 / 0.152,0 / 0.0223 / 0.0601,0.0161 / 0 / 0
GGAAACCGCUUCUUC,0.192,0.164 / 0.161 / 0.152,0 / 0 / 0.0200,0 / 0 / 0
GGAAACCGGACCUCC,0.240,0.0819 / 0.0482 / 0.0762,0 / 0.0223 / 0,0 / 0 / 0
GGAAACCGGACGGUC,0.288,0.295 / 0.0964 / 0.0190,0 / 0.0223 / 0.0200,0.0322 / 0 / 0
GGAAACCGGAGGUGC,0.176,0.0819 / 0.0482 / 0.114,0.0162 / 0 / 0.0200,0 / 0 / 0
GGAAACCGGCAUAAC,0.256,0.0491 / 0.112 / 0.0571,0.0162 / 0 / 0,0 / 0 / 0
GGAAACCGGCAUGAC,0.144,0.0983 / 0.0643 / 0.114,0 / 0.0223 / 0,0 / 0 / 0
GGAAACCGGCCAGUC,0.224,0.0328 / 0.112 / 0.152,0 / 0 / 0.0200,0 / 0 / 0
GGAAACCGGCCCUUC,0.240,0.0491 / 0.0161 / 0.0952,0.0162 / 0.0445 / 0.0200,0 / 0 / 0
GGAAACCGGCCUAAC,0.224,0.0491 / 0.112 / 0.114,0 / 0.0223 / 0,0 / 0 / 0.0228
GGAAACCGGCGCUUC,0.288,0.0491 / 0.0643 / 0.0952,0.0162 / 0 / 0,0.0161 / 0 / 0
GGAAACCGGCGUAGC,0.272,0.0655 / 0.0964 / 0.114,0 / 0 / 0.0200,0 / 0 / 0
GGAAACCGGCGUGCC,0.176,0.0983 / 0.145 / 0.0952,0 / 0 / 0.0200,0 / 0 / 0
GGAAACCGGCUUCAC,0.272,0.0819 / 0.193 / 0.0762,0 / 0.0223 / 0,0.0483 / 0 / 0
GGAAACCGGGAUGCC,0.208,0.131 / 0.112 / 0.0762,0.0162 / 0 / 0.0401,0 / 0 / 0
GGAAACCGGGUGACC,0.256,0.0655 / 0.129 / 0.0571,0 / 0 / 0.0200,0 / 0 / 0
GGAAACCGGUCCACC,0.240,0.0328 / 0.129 / 0.0571,0 / 0 / 0,0 / 0 / 0
GGAAACCGGUCUCUC,0.192,0.147 / 0.0643 / 0.114,0 / 0 / 0.0401,0 / 0 / 0
GGAAACCGGUGUGUC,0.176,0.0164 / 0.0803 / 0.0381,0.0162 / 0.0223 / 0,0 / 0 / 0
GGAAACCGUAACCCC,0.336,0.0819 / 0.0964 / 0.0381,0 / 0.0223 / 0.0601,0.0161 / 0 / 0
GGAAACCGUAUCCCC,0.112,0.0655 / 0.112 / 0.114,0 / 0 / 0.0200,0.0161 / 0 / 0
GGAAACCGUAUUAUC,0.208,0.164 / 0.177 / 0.228,0.0162 / 0 / 0.0401,0.0161 / 0 / 0
GGAAACCGUCUCCCC,0.208,0.0655 / 0.0643 / 0.0571,0 / 0 / 0,0 / 0 / 0
GGAAACCGUCUGCGC,0.272,0.0491 / 0.112 / 0.133,0 / 0.0223 / 0,0 / 0 / 0
GGAAACCGUGAGUGC,0.304,0.295 / 0.241 / 0.495,0.129 / 0.0891 / 0.160,0.0805 / 0.0454 / 0.0456
GGAAACCGUGUCUUC,0.224,0.0164 / 0.0643 / 0.133,0 / 0.0223 / 0.0200,0.0161 / 0 / 0
GGAAACCGUUAUUCC,0.0960,0.311 / 0.273 / 0.343,0.0808 / 0.0891 / 0.160,0.0805 / 0.0303 / 0.137

For reference, wild type rose from 33.9 per thousand in the pool to 202, 200, 159 (inoculated region), 724, 746, 710 (leaf margin) and 856, 883, 880 (systemic leaves). Sequences that differ at fixed positions probably stem from PCR or sequencing errors, and defective variants can be carried along by functional ones.